Anti-infective test results gathered from many reports (values: NIAID ChemDB through PubChem).

Common to all: tests on isolated targets; species: HIV-1; target: Integrase; read-out: inhibition

Inhibition is in % at the dose shown (toxicity tests: loss of growth or viability). Lines come from different laboratories, so protocols vary.

compound | method | tested at | result
COc1ccc(S(=O)(=O)Nc2cc(Cl)c3ccc(/C=C/c4ccc(O)cc4)nc3c2O)cc1 | strand transfer | 0.05 µM | 101%
COC(=O)C(CCCCNC(=O)c1ccc(O)c(O)c1)NC(=O)c1ccc(O)c(O)c1 | 3′ processing | 10 µM | 0%
O=[N+]([O-])c1ccc(S(=O)(=O)Nc2cc(Cl)c3ccc(/C=C/c4ccccc4)nc3c2O)cc1 | strand transfer | 0.05 µM | 96.7%
COc1ccc2[nH]c(=O)c(CNC3CC3)cc2c1 | strand transfer / absorbance | 20 µM | 23.3%
O=C(/C=C/c1ccc(O)c(O)c1)NCCCC(NC(=O)/C=C/c1ccc(O)c(O)c1)C(=O)O | 3′ processing | 10 µM | 90%
COc1cccc2cc(CN(C(=O)c3ccccc3)C3CCCC3)c(=O)[nH]c12 | strand transfer / absorbance | 20 µM | -11.8%
O=C(NCCC(NC(=O)c1ccc(O)c(O)c1)C(=O)O)c1ccc(O)c(O)c1 | 3′ processing | 10 µM | 0%
C[C@H](c1ccccc1)N(Cc1ccccc1)C(=O)/C=C(\O)C(=O)O | strand transfer | 70 µM | 68%
COC(=O)c1cc(O)c(O)c(O)c1 | 3′ processing | 250 µM | 51.4%
COC(=O)C(CCCNC(=O)/C=C/c1cc(O)c(O)c(O)c1)NC(=O)/C=C/c1cc(O)c(O)c(O)c1 | 3′ processing | 10 µM | 96%
COc1ccc(/C=C/c2ccc3c(Cl)cc(NS(=O)(=O)c4ccc(OC)cc4)c(O)c3n2)cc1 | strand transfer | 0.05 µM | 11.8%
COC(=O)C(CCNC(=O)/C=C/c1ccc(O)c(O)c1)NC(=O)/C=C/c1ccc(O)c(O)c1 | 3′ processing | 10 µM | 52%
O=C(/C=C(\O)C(=O)O)NCc1cc(F)cc(F)c1 | strand transfer | 70 µM | 60%
O=C(c1ccccc1)N(Cc1cc2ccccc2[nH]c1=O)C1CC1 | strand transfer / absorbance | 20 µM | 39.5%
O=C(NCCCC(NC(=O)c1ccc(O)c(O)c1)C(=O)O)c1ccc(O)c(O)c1 | 3′ processing | 10 µM | 0%
O=C(/C=C(\O)C(=O)O)NCc1ccc(C(F)(F)F)cc1 | strand transfer | 70 µM | 60%
COc1ccc(S(=O)(=O)Nc2cc(Cl)c3ccc(/C=C/c4ccc(Br)cc4)nc3c2O)cc1 | strand transfer | 0.05 µM | 53.6%
COc1ccccc1CNC(=O)/C=C(\O)C(=O)O | strand transfer | 70 µM | 55%
O=C(c1ccccc1)N(Cc1cc2ccccc2[nH]c1=O)C1CCCCC1 | strand transfer / absorbance | 20 µM | 32.8%
O=S(=O)(Nc1cc(Cl)c2ccc(/C=C/c3ccccc3)nc2c1O)c1ccccc1 | strand transfer | 0.05 µM | 95.9%
CC(C)(C)c1ccc(CNC(=O)/C=C(\O)C(=O)O)cc1 | strand transfer | 70 µM | 35%
COc1cccc2cc(CNC3CC3)c(=O)[nH]c12 | strand transfer / absorbance | 20 µM | 31.2%

The last 3 rows once more:

compound	method	tested at	result
O=S(=O)(Nc1cc(Cl)c2ccc(/C=C/c3ccccc3)nc2c1O)c1ccccc1	strand transfer	0.05 µM	95.9%
CC(C)(C)c1ccc(CNC(=O)/C=C(\O)C(=O)O)cc1	strand transfer	70 µM	35%
COc1cccc2cc(CNC3CC3)c(=O)[nH]c12	strand transfer / absorbance	20 µM	31.2%